A mixed list of measured activities; the numbers were collected in NIAID ChemDB.

Shared fields: toxicity to cultured cells; read-out: CC50

An empty or dashed field is not shown. Lines come from different laboratories, so protocols vary. CCn is the concentration with n% toxicity to the cells.

| structure | method | cells | result |
|---|---|---|---|
| Fc1ccc(C(c2ccc(F)cc2)N2CCN(C/C=C/c3ccccc3)CC2)cc1 | luminescence | n4mBid | 18 µM |
| C=C[C@@H](CO)[C@H](C)Cn1cnc2c(=O)[nH]c(N)nc21 | - | MT-4 (T-CELL) | <5.02 µg/mL |
| C[C@H]1O[C@@H](O[C@H]2CC[C@@]3(C)[C@H](CC[C@@H]4[C@@H]3CC[C@]3(C)[C@@H](C5=CC(=O)OC5)CC[C@]43O)C2)C[C@H](O)[C@@H]1O[C@@H]1O[C@H](CO)[C@@H](O)[C@H](O)[C@H]1O | MTT | GMK AH1 | >250 µM |
| CCCCCCCCCCCCCC(=O)OC[C@@H]1O[C@H](n2cc(F)c(N)nc2=O)CS1 | MTT | MAGI | >200 µM |
| CC(C)[C@@H]1NC(=O)[C@H](C)OC(=O)[C@@H](C(C)C)NC(=O)[C@@H](C(C)C)OC(=O)[C@H](C(C)C)NC(=O)[C@H](C)OC(=O)[C@@H](C(C)C)NC(=O)[C@@H](C(C)C)OC(=O)[C@H](C(C)C)NC(=O)[C@H](C)OC(=O)[C@@H](C(C)C)NC(=O)[C@@H](C(C)C)OC1=O | luminescence | Jurkat cells | 0.2 µM |
| O=c1[nH]c(=O)n([C@H]2C[C@H](O)[C@@H](CO)O2)c[c]1[Hg+].O=c1cc[nH]c(=S)[nH]1 | trypan blue | HELA TK- | >115 µg/mL |
| COc1cc2c(c(OC)c1OC)-c1ccc(O)c(=O)cc1[C@@H](NC(C)=O)CC2 | luminescence | Jurkat cells | >100 µM |
| CCCCc1ccc2nc(NC(=O)OC)[nH]c2c1 | - | E6 | 0.03 µg/mL |
| Clc1nc(Br)[nH]c1Cl | - | HFF | >100 µM |
| CS(=O)(=O)NC1N=C(c2ccccc2)c2cc(Cl)ccc2NC1=O | - | VERO | 5 µM |
| Nc1nc(=O)n([C@@H]2CS[C@H](CO)O2)cc1F | MTT | MAGI | >200 µM |
| Clc1ccc2c(c1)C(N1CCNCC1)=Nc1ccccc1O2 | luminescence | n4mBid | 17 µM |
| COc1cc(/C=C/C(=O)N2CCC=CC2=O)cc(OC)c1OC | luminescence | Jurkat cells | 2 µM |
| OCC(CO)OCn1c(Br)nc(Br)c1Br | - | HFF | >100 µM |
| O=c1[nH]c(=O)n([C@@H]2O[C@H](CO)[C@@H](O)[C@@H]2F)cc1C12B3B4B5B6B(B3B1B42)B1B5C61 | - | CFU-GM | 19.1 µM |
| C#C[C@]1(CO)O[C@@H](n2cc(F)c3c(N)nc(Cl)nc32)C[C@@H]1O | ATP / luminescence | MT4-GFP | >8.4 µM |
| C[C@H]1O[C@@H](O[C@H]2[C@@H](O)C[C@H](O[C@H]3CC[C@@]4(C)[C@H](CC[C@@H]5[C@@H]4CC[C@]4(C)[C@@H](C6=CC(=O)OC6)CC[C@]54O)C3)O[C@@H]2C)C[C@H](O)[C@@H]1O | MTT | GMK AH1 | >250 µM |
| COC(=O)Nc1nc2ccccc2[nH]1 | - | E6 | >3 µg/mL |
| O=c1[nH]c(=O)n([C@H]2C[C@H](O)[C@@H](CO)O2)c[c]1[Hg+].OCC(O)C[S-] | trypan blue | HELA TK- | 15 µg/mL |
| C[C@@H]1C2CCC[C@@H]3CCC4(C)OO[C@@]23[C@H](O[C@H]1OC(=O)CCC(=O)NCCCCCCCCNC(=O)CCC(=O)O[C@@H]1O[C@@H]2OC3(C)CC[C@H]5CCCC([C@H]1C)[C@]52OO3)O4 | resazurin | CCRF-CEM | 2.94 µM |
| Cc1cccc(OCCNC(=O)c2ccccc2)c1 | - | HeLa | >195.8 µM |
| O=c1cc(-c2ccc(O)c(-c3c(O)cc(O)c4c(=O)cc(-c5ccc(O)cc5)oc34)c2)oc2cc(O)cc(O)c12 | MTT | HepG 2.2.15 cells | <30 µg/mL |
| O=c1[nH]c2ccccc2n1C1CCN(CCCC(c2ccc(F)cc2)c2ccc(F)cc2)CC1 | luminescence | n4mBid | 7 µM |
| Cc1cccc(OCCNC(=O)c2ccc(C)cc2Cl)c1 | - | HeLa | 154.1 µM |
| COc1ccc(C(=O)NC2N=C(c3ccc(C(F)(F)F)cc3)c3ccccc3NC2=O)cc1 | - | HEP-2 | 7 µM |
| CN1[C@@H]2CC[C@H]1CC(OC(c1ccccc1)c1ccccc1)C2 | luminescence | n4mBid | 40 µM |
| CNc1ccc2oc(C[C@@H]3OC4(CC[C@@H]3C)O[C@H](C(C)C(=O)c3ccc[nH]3)[C@H](C)C[C@H]4C)nc2c1C(=O)O | luminescence | Macrophage | 0.32 µg/mL |
| OC[C@H]1O[C@@H](n2c(Br)nc(Cl)c2Cl)[C@H](O)[C@H]1O | - | HFF | >100 µM |
| CC1=CC2=C(C(C)C)C(O)C(=O)/C(=C\N[C@@H](C(=O)O)C(C)C)C2C(O)=C1c1c(C)cc2c(C(C)C)c(O)c(O)c(C=N[C@H](C(=O)O)C(C)C)c2c1O.[Na+].[Na+] | MTT | GHOST | 43.3 µM |
| OCCN1CCN(CCCN2c3ccccc3Sc3ccc(Cl)cc32)CC1 | luminescence | n4mBid | 22 µM |
| CCCSc1ccc2nc(NC(=O)OC)[nH]c2c1 | - | E6 | 0.3 µg/mL |
| OCC(CO)OCn1c(Cl)nc(Cl)c1Cl | - | HFF | >100 µM |
| O=C(Nc1cccc(Cl)c1)NC1N=C(c2ccccc2)c2ccccc2NC1=O | - | HEP-2 | 9.6 µM |
| O=c1[nH]c(=O)n([C@H]2C[C@H](O)[C@@H](CO)O2)c[c]1[Hg+].O[C@H](C[S-])[C@H](O)CS | trypan blue | HELA TK- | 48.8 µg/mL |
| CC(C)CN(C[C@@H](O)[C@H](Cc1ccccc1)NC(=O)O[C@H]1CCOC1)S(=O)(=O)c1ccc(N)cc1 | MTT | KG-1-C | >100 µM |
| COC(=O)N[C@H](C(=O)N1CCC[C@H]1c1ncc(-c2ccc(-c3ccc(-c4cnc([C@@H]5CCCN5C(=O)[C@@H](NC(=O)OC)C(C)C)[nH]4)cc3)cc2)[nH]1)C(C)C | ATP | SNB-78 | 15 µM |
| C[C@H]1OC(O[C@H]2[C@@H](O)C[C@H](O[C@@]3(C)[C@@H](O)C[C@H](O[C@H]4CC[C@@]5(C)[C@H](CC[C@@H]6[C@@H]5C[C@@H](O)[C@]5(C)[C@@H](C7=CC(=O)OC7)CC[C@]65O)C4)O[C@@H]3C)O[C@@H]2C)C[C@H](O)[C@@H]1O | MTT | GMK AH1 | >25 µM |
| COc1ccc(OC)c(C(=O)NC2N=C(c3ccccc3)c3ccccc3NC2=O)c1 | - | HEP-2 | 5.4 µM |
| CC1=CC2=C(C(C)C)C(O)C(=O)/C(=C\N[C@H](C)C(=O)O)C2C(O)=C1c1c(C)cc2c(C(C)C)c(O)c(O)c(C=N[C@@H](C)C(=O)O)c2c1O.[Na+].[Na+] | MTT | GHOST X4/R5 | 63.46 µM |
| O=c1cc(-c2ccccc2)oc2cc(O)cc(O)c12 | - | OM-10.1/HIV-1 | 25 µM |
| COC(=O)N[C@H](C(=O)N1CCC[C@H]1c1nc2ccc(-c3csc4c(-c5ccc(-c6cnc([C@@H]7CCCN7C(=O)[C@H](NC(=O)OC)c7ccccc7)[nH]6)cc5)csc34)cc2[nH]1)C(C)C | ATP | CCRF-CEM | >50 µM |
| C[C@H]1O[C@@H](O[C@H]2CC[C@@]3(C)[C@H](CC[C@@H]4[C@@H]3CC[C@]3(C)[C@@H](C5=CC(=O)OC5)C(O)C[C@]43O)C2)C[C@H](O)[C@@H]1O[C@@H]1O[C@H](CO)[C@@H](O)[C@H](O)[C@H]1O | MTT | GMK AH1 | >250 µM |
| Cc1ccc2c(c1)nc(-c1ccc(N(C)C)cc1)n2CCc1ccccc1 | MTT | Macrophage | >100 µM |
| Cc1cc2c(C(C)C)c(O)c(O)c(C=O)c2c(O)c1-c1c(C)cc2c(C(C)C)c(O)c(O)c(C=O)c2c1O | MTT | GHOST X4/R5 | 6.85 µM |
| Nc1nc(F)nc2c1ncn2/C=C1/CC1CO | - | H-1 | 8.5 µM |
| O=S(=O)(c1cccc2cnccc12)N1CCCNCC1 | MTT | U1 | 95 µM |
| O=C(/C=C/c1ccc(O)c(O)c1)OCCc1ccccc1 | luminescence | Jurkat cells | >100 µM |
| CC1=CC2=C(C(C)C)C(O)C(=O)/C(=C\NC(C)(C)C(=O)O)C2C(O)=C1c1c(C)cc2c(C(C)C)c(O)c(O)c(C=NC(C)(C)C(=O)O)c2c1O.[Na+].[Na+] | MTT | GHOST | 53.27 µM |
| Cc1cccc(SCCNC(=O)c2ccccc2Cl)c1 | - | HeLa | 60.8 µM |
| CC1=C(O)C(=O)C=C2C1=CC=C1[C@@]2(C)CC[C@@]2(C)[C@@H]3C[C@](C)(C(=O)O)CC[C@]3(C)CC[C@]12C | luminescence | Jurkat cells | >100 µM |
| COc1cc([C@H]2OC[C@H]3[C@@H]2CO[C@H]3c2ccc3c(c2)OCO3)cc2c1OCO2 | - | HOG.R5 | 23 µg/mL |
| OCCOCn1c(Br)nc(Br)c1Br | - | HFF | >100 µM |
| Nc1[nH]c(=O)nc2c1ncn2/C=C1/C[C@H]1CO | - | H-1 | 86 µM |
| O=C(O)/C=C/c1cc(C(=O)O)c(O)c2nc(/C=C/c3ccc(O)c(O)c3)ccc12 | MTT | HeLaP4 | >100 µM |
| Cc1cccc(OCCNC(=O)c2ccccc2C(F)(F)F)c1 | - | HeLa | >154.7 µM |
| CC(C)CN(C[C@@H](O)[C@H](Cc1ccc(F)cc1)NC(=O)O[C@H]1CCO[C@H]2OCC[C@H]21)S(=O)(=O)c1ccc2nc(NC(C)C)sc2c1 | MTT | HKBMM | >100 µM |
| Nc1ccn([C@H]2CC[C@@H](CO)O2)c(=O)n1 | trypan blue | HB611 | >200 µg/mL |
| C=C[C@@H](C1=CC(=O)C(OC)=C(OC)C1=O)c1ccccc1 | luminescence | Jurkat cells | 2.9 µM |
| COc1cc(/C=C/C(=O)O)cc(O)c1O | XTT | McCoy fibroblast cells | 132.5 µg/mL |
| C[C@H]1O[C@@H](O[C@H]2CC[C@@]3(C)[C@H](CC[C@@H]4[C@@H]3CC[C@]3(C)[C@@H](C5=CC(=O)OC5)CC[C@]43O)C2)C[C@H](O)[C@@H]1O | MTT | GMK AH1 | >250 µM |
| Nc1ncnc2c1ncn2CCOCP(=O)(O)O | trypan blue | HB611 | 29 µg/mL |
| Cc1cn([C@H]2C[C@H](N=[N+]=[N-])[C@@H](CO)O2)c(=O)[nH]c1=O | - | A3.01 | >200 µM |
| O=C(NC(=O)C1N=C(c2ccccc2)c2ccccc2NC1=O)c1ccc2c(c1)CCO2 | - | VERO | 2 µM |
| Cc1cn([C@H]2C=C[C@@H](CO)O2)c(=O)[nH]c1=O | trypan blue | HB611 | >200 µg/mL |

A second listing of 9 rows from above:

CC(C)[C@@H]1NC(=O)[C@H](C)OC(=O)[C@@H](C(C)C)NC(=O)[C@@H](C(C)C)OC(=O)[C@H](C(C)C)NC(=O)[C@H](C)OC(=O)[C@@H](C(C)C)NC(=O)[C@@H](C(C)C)OC(=O)[C@H](C(C)C)NC(=O)[C@H](C)OC(=O)[C@@H](C(C)C)NC(=O)[C@@H](C(C)C)OC1=O ; method: luminescence ; cells: Jurkat cells ; result: 0.2 µM
OC[C@H]1O[C@@H](n2c(Br)nc(Cl)c2Cl)[C@H](O)[C@H]1O ; cells: HFF ; result: >100 µM
COc1ccc(OC)c(C(=O)NC2N=C(c3ccccc3)c3ccccc3NC2=O)c1 ; cells: HEP-2 ; result: 5.4 µM
O=S(=O)(c1cccc2cnccc12)N1CCCNCC1 ; method: MTT ; cells: U1 ; result: 95 µM
O=C(NC(=O)C1N=C(c2ccccc2)c2ccccc2NC1=O)c1ccc2c(c1)CCO2 ; cells: VERO ; result: 2 µM
C[C@H]1O[C@@H](O[C@H]2CC[C@@]3(C)[C@H](CC[C@@H]4[C@@H]3CC[C@]3(C)[C@@H](C5=CC(=O)OC5)C(O)C[C@]43O)C2)C[C@H](O)[C@@H]1O[C@@H]1O[C@H](CO)[C@@H](O)[C@H](O)[C@H]1O ; method: MTT ; cells: GMK AH1 ; result: >250 µM
O=c1[nH]c(=O)n([C@H]2C[C@H](O)[C@@H](CO)O2)c[c]1[Hg+].O[C@H](C[S-])[C@H](O)CS ; method: trypan blue ; cells: HELA TK- ; result: 48.8 µg/mL
Cc1cc2c(C(C)C)c(O)c(O)c(C=O)c2c(O)c1-c1c(C)cc2c(C(C)C)c(O)c(O)c(C=O)c2c1O ; method: MTT ; cells: GHOST X4/R5 ; result: 6.85 µM
OCCOCn1c(Br)nc(Br)c1Br ; cells: HFF ; result: >100 µM